This is an account of results in ChEMBL document CHEMBL1764973 (J Med Chem, 2011).

Protein sequences, listed by entry. Tags and fused reporters are not part of them. Lines headed by an entry give the natural chain unless they say otherwise; changes in a name come on top.
UniProt Q9H3N8: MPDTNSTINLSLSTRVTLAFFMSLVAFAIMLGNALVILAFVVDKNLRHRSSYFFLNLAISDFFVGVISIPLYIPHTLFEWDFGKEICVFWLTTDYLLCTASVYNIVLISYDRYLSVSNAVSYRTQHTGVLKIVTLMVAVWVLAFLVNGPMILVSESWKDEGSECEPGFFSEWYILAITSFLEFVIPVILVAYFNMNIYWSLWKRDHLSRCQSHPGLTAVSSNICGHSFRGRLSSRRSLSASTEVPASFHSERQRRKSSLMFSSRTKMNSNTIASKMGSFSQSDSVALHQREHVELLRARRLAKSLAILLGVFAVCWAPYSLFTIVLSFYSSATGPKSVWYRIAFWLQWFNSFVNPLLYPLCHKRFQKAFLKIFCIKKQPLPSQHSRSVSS

Some results are limits rather than exact numbers.

The target of the test is Histamine H4 receptor (Homo sapiens) (UniProt Q9H3N8). The following applies: 10 uM.

For orientation: inhibition means the share of the control response that was lost under treatment. As for `COc1ccc(-c2c(C)c(C(=O)NC3(C#N)CCOCC3)nn2-c2ccccc2Br)cc1`, the inhibition was less than 50%.
